Pooled drug test results. Numbers come from NIAID ChemDB, via PubChem.

All rows: target-level tests; species: HIV-1; protein: Reverse transcriptase; measure: IC50

ICn: concentration for n% inhibition. Two numbers with a dash give a range or band. Neighbouring rows are from separate reports.

{"compound": "CC(C)=CCN1Cc2cccc3[nH]c(=S)n(c23)C[C@@H]1C", "mutations": "RT-Y181I", "method": "nucleotide incorporation", "value": "67.5 µM"}
{"compound": "CCc1cc(NCc2nc3c(C)ccc(C)c3o2)c(=O)[nH]c1C", "mutations": "RT-Y181S", "method": "nucleotide incorporation", "value": "4.27 µM"}
{"compound": "CCN1c2ncc(CCOc3ccc(Nc4cccc(CC(=O)O)c4)cc3C)cc2C(=O)N(C)c2cccnc21", "strain": "IIIB", "mutations": "RT-K103N Y181C", "method": "nucleotide incorporation / radiometric", "value": "<0.05 µM"}
{"compound": "CCN1c2ncc(CCOc3ccc4on(C)c(=O)c4c3)cc2C(=O)Nc2c(C)cc(F)nc21", "strain": "IIIB", "mutations": "RT-K103N Y181C", "method": "nucleotide incorporation / radiometric", "value": ">0.1 µM"}
{"compound": "CCN1c2ncc(CCOc3ccc(-c4ccc(CC(=O)O)cc4)cc3C)cc2-c2nccn2-c2cccnc21", "mutations": "RT-K103N Y181C", "method": "nucleotide incorporation / radiometric", "value": "<0.05 µM"}
{"compound": "CCN1c2ncc(CCOc3ccc(-c4cc(F)c(O)c(F)c4)cc3C)cc2C(=O)N(C)c2cccnc21", "strain": "IIIB", "mutations": "RT-K103N Y181C", "method": "nucleotide incorporation / radiometric", "value": "0.05–0.1 µM"}
{"compound": "N#Cc1cc(Cl)cc(Oc2cc(Cl)cc(OCC(=O)NC3CCS(=O)(=O)C3)c2)c1", "method": "nucleotide incorporation / radiometric", "value": "<20 µM"}
{"compound": "CCN1c2ncc(CCOc3ccc(CCC(=O)O)c4c3CCCC4)cc2C(=O)N(C)c2ccc(Cl)nc21", "strain": "WT", "method": "nucleotide incorporation / radiometric", "value": "<0.1 µM"}
{"compound": "CCN1c2ncc(CCOc3cccc4c3CNC(=O)N4)cc2-c2nccn2-c2c(C)ccnc21", "mutations": "RT-K103N Y181C", "method": "nucleotide incorporation / radiometric", "value": "<0.05 µM"}
{"compound": "N#Cc1cc(Cl)cc(Oc2cc(Cl)cc(OCC(=O)NCC3CCS(=O)(=O)C3)c2)c1", "method": "nucleotide incorporation / radiometric", "value": "<20 µM"}
{"compound": "CCN1c2ncc(CCOc3ccc(C(=O)O)c4ccccc34)cc2C(=O)N(C)c2ccc(C)nc21", "mutations": "RT-Y188L", "method": "nucleotide incorporation / radiometric", "value": ">1 µM"}
{"compound": "CCN1c2ncc(CCOc3cccc4c3C=CS(=O)(=O)N4C)cc2-c2ncc(C)n2-c2cccnc21", "mutations": "RT-K103N Y181C", "method": "nucleotide incorporation / radiometric", "value": "<0.05 µM"}
{"compound": "CCN1c2ncc(CCOc3ccc4on(C(C)(C)C)c(=O)c4c3)cc2C(=O)Nc2c(C)cc(F)nc21", "strain": "IIIB", "method": "nucleotide incorporation / radiometric", "value": "0.05–0.1 µM"}
{"compound": "CCN1c2ncc(CCOc3ccc(C(=O)O)c4ccccc34)cc2C(=O)N(C)c2ccc(F)nc21", "mutations": "RT-Y188L", "method": "nucleotide incorporation / radiometric", "value": ">1 µM"}
{"compound": "CCN1c2ncc(CCOc3ccc(C(=O)O)c4c3CCCC4)cc2-c2ncc(C)n2-c2cccnc21", "method": "nucleotide incorporation / radiometric", "value": "<0.05 µM"}
{"compound": "CCN1c2ncc(CCOc3cccc4c3C(C)(C)OC(=O)N4)cc2C(=O)N(C)c2cccnc21", "strain": "IIIB", "mutations": "RT-K103N Y181C", "method": "nucleotide incorporation / radiometric", "value": ">0.1 µM"}
{"compound": "CCN1c2ncc(CCOc3ccc(-c4ccc(Cl)c(CC(=O)O)c4)cc3C)cc2C(=O)N(C)c2cccnc21", "strain": "IIIB", "mutations": "RT-K103N Y181C", "method": "nucleotide incorporation / radiometric", "value": "<0.05 µM"}
{"compound": "CCN1c2ncc(CCOc3cccc4[nH]c(=O)n(C)c34)cc2C(=O)N(C)c2cccnc21", "strain": "IIIB", "mutations": "RT-K103N Y181C", "method": "nucleotide incorporation / radiometric", "value": ">0.1 µM"}
{"compound": "CCN1c2ncc(CCOc3cccc4c3CNC4=O)cc2-c2ncc(C)n2-c2cccnc21", "method": "nucleotide incorporation / radiometric", "value": "<0.05 µM"}
{"compound": "CS(=O)(=O)c1ccc(NC(=O)COc2cc(Cl)cc(Oc3cc(Cl)cc(C#N)c3)c2)c(Cl)c1", "method": "nucleotide incorporation / radiometric", "value": "<20 µM"}
{"compound": "CCN1c2ncc(CCOc3cccc4c3CCNC4=O)cc2C(=O)N(C)c2cccnc21", "strain": "IIIB", "mutations": "RT-K103N Y181C", "method": "nucleotide incorporation / radiometric", "value": "0.05–0.1 µM"}
{"compound": "CCN1c2ncc(CCOc3ccc(C(=O)O)c4c3CCN(S(=O)(=O)N(C)C)C4)cc2C(=O)N(C)c2cccnc21", "mutations": "RT-K103N Y181C", "method": "nucleotide incorporation / radiometric", "value": "<0.1 µM"}
{"compound": "CCN1c2ncc(CCOc3cccc4c3CNC(=O)N4C)cc2C(=O)Nc2c(C)ccnc21", "strain": "IIIB", "method": "nucleotide incorporation / radiometric", "value": "<0.05 µM"}
{"compound": "CCN1c2ncc(CCOc3ccc(-c4ccn(CC(=O)O)n4)cc3)cc2C(=O)N(C)c2cccnc21", "strain": "IIIB", "method": "nucleotide incorporation / radiometric", "value": "<0.05 µM"}
{"compound": "CCN1c2ncc(CCOc3cccc4c3CNC(=O)O4)cc2C(=O)N(C)c2cccnc21", "strain": "IIIB", "mutations": "RT-K103N Y181C", "method": "nucleotide incorporation / radiometric", "value": "<0.05 µM"}
{"compound": "CCN1c2ncc(CCOc3ccc(C(=O)O)c4ccccc34)cc2-c2ncc(C)n2-c2cccnc21", "method": "nucleotide incorporation / radiometric", "value": "<0.05 µM"}
{"compound": "Cc1ccc(-c2nnc(COc3ccc(Cl)c(Oc4cc(Cl)cc(C#N)c4)c3)o2)cc1", "method": "nucleotide incorporation / radiometric", "value": "<20 µM"}
{"compound": "CCN1c2ncc(CCOc3cccc4c3COC(=O)N4)cc2C(=O)Nc2c(C)ccnc21", "strain": "IIIB", "mutations": "RT-K103N Y181C", "method": "nucleotide incorporation / radiometric", "value": ">0.1 µM"}

Repeating the first 4 entries:

{"compound": "CC(C)=CCN1Cc2cccc3[nH]c(=S)n(c23)C[C@@H]1C", "mutations": "RT-Y181I", "method": "nucleotide incorporation", "value": "67.5 µM"}
{"compound": "CCc1cc(NCc2nc3c(C)ccc(C)c3o2)c(=O)[nH]c1C", "mutations": "RT-Y181S", "method": "nucleotide incorporation", "value": "4.27 µM"}
{"compound": "CCN1c2ncc(CCOc3ccc(Nc4cccc(CC(=O)O)c4)cc3C)cc2C(=O)N(C)c2cccnc21", "strain": "IIIB", "mutations": "RT-K103N Y181C", "method": "nucleotide incorporation / radiometric", "value": "<0.05 µM"}
{"compound": "CCN1c2ncc(CCOc3ccc4on(C)c(=O)c4c3)cc2C(=O)Nc2c(C)cc(F)nc21", "strain": "IIIB", "mutations": "RT-K103N Y181C", "method": "nucleotide incorporation / radiometric", "value": ">0.1 µM"}